## In-gel DMS probing of monomeric and dimeric HIV-1 RNA

Data from the supplement of Ye et al. 2022, doi:10.1038/s41594-022-00746-2.

RNA: 5' end of the HIV-1 NL4-3 genome, made in vitro. Positions 1-437 read:
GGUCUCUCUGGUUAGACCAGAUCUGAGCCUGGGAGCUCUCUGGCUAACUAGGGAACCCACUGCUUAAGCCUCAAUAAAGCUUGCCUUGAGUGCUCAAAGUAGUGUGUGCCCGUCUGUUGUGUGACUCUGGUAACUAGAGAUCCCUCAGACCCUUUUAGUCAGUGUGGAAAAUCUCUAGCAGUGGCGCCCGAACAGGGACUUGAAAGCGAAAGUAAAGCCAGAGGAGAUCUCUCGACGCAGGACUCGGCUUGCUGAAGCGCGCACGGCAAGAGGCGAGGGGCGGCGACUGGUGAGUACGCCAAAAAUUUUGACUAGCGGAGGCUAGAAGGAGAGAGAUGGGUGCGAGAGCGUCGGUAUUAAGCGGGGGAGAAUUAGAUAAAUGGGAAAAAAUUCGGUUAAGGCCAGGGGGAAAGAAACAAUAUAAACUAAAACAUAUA

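Randomly mutated transcripts starting with one, two or three G (1G, 2G, 3G), capped or uncapped, were folded for 30 min at 37 °C. Monomer and dimer bands were cut from native gels after folding in high salt (300 mM KCl, 5 mM MgCl2) or low salt (40 mM KCl, 0.1 mM MgCl2). Each band was probed in the gel with DMS (170 mM, 15 min, 37 °C), with ethanol as control, and sequenced.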

Scale: normalised reactivity, A and C only; low values point to paired or protected bases, higher values to unpaired ones. Sample: 2G uncapped high-salt dimer. One numbering serves 1G, 2G and 3G. A position is written with its base.

| position | domain | 2G uncapped high-salt dimer |
|---|---|---|
| A19 | TAR | 0.03 |
| A21 | TAR | 0.54 |
| A26 | TAR | 0.13 |
| C44 | TAR | 0.03 |
| A46 | TAR | 0.05 |
| A47 | TAR | 0.13 |
| A54 | TAR | 0.18 |
| C58 | PolyA | 0.54 |
| A59 | PolyA | 0.32 |
| C63 | PolyA | 0.09 |
| A66 | PolyA | 1.15 |
| A67 | PolyA | 0.58 |
| C69 | PolyA | 0.03 |
| A73 | PolyA | 0.04 |
| A78 | PolyA | 0.66 |
| C80 | PolyA | 0.35 |
| A89 | PolyA | 0.32 |
| C93 | PolyA | 0.03 |
| A96 | PolyA | 0.24 |
| C114 | none | 0.25 |
| A124 | none | 0.86 |
| A133 | PBS | 1.45 |
| A136 | PBS | 0.09 |
| C143 | PBS | 0.03 |
| C151 | PBS | 0.65 |
| C173 | PBS | 0.03 |
| C175 | PBS | 0.03 |
| C185 | PBS | 0.41 |
| A192 | PBS | 0.68 |
| A194 | PBS | 0.84 |
| C199 | PBS | 0.45 |
| A205 | PBS | 0.40 |
| A214 | PBS | 0.30 |
| A215 | PBS | 0.67 |
| C218 | antiPAS | 0.08 |
| A222 | antiPAS | 0.34 |
| A268 | SL1 | 0.15 |
| C297 | SL2 | 0.13 |
| A302 | none | 1.18 |
| A311 | none | 1.34 |
| A314 | SL3 | 0.04 |
| A332 | none | 0.46 |
| A345 | none | 1.29 |
| C352 | none | 0.37 |
| A378 | none | 0.20 |
| A385 | none | 0.51 |
| C393 | none | 0.60 |
| A398 | none | 0.24 |
| C402 | none | 0.04 |
| C403 | none | 0.03 |
| A404 | none | 0.28 |
| A410 | none | 0.44 |
| C417 | none | 0.75 |
| A418 | none | 0.61 |
| A419 | none | 0.48 |
| A423 | none | 0.48 |
| A425 | none | 0.54 |
| A428 | none | 0.09 |
| A430 | none | 0.59 |
| A431 | none | 0.64 |

The first 4 entries again:

| position | domain | 2G uncapped high-salt dimer |
|---|---|---|
| A19 | TAR | 0.03 |
| A21 | TAR | 0.54 |
| A26 | TAR | 0.13 |
| C44 | TAR | 0.03 |